A mixed list of measured activities; the numbers were collected in NIAID ChemDB.

Shared fields: tests in culture

ECn: concentration that inhibits the pathogen or its effect by n%. Blank or dashed fields: not listed here. a–b is a range or a potency band. Percent inhibition refers to the dose given; in toxicity tests it is the harm to the cells. Neighbouring rows are from separate reports.

SMILES,organism,tested at,cell line,measure,strain,method,value
Nc1ncnc2c1ncn2[C@H]1C[C@H](O)[C@@H](CO)O1,Bovine herpesvirus 1,,MDBK,EC50,IRB-LA,cytopathic effect,>50 µM
OC[C@@H]1[C@@H](O)[C@H](O)[C@@H](O)CN1CCCCC1CCCCC1,Bovine viral diarrhea virus,,MDBK,EC50,,plaque count,3 µM
OC[C@@H]1CC[C@H](n2cnc3c(NC4CC4)nc(Cl)nc32)O1,Bovine herpesvirus 1,,MDBK,EC50,IRB-LA,cytopathic effect,50 µM
CCCCCCCCCN1C[C@H](O)[C@@H](O)[C@H](O)[C@H]1CO,Bovine viral diarrhea virus,,MDBK,EC50,,plaque count,105 µM
C[C@@H]1CC[C@H]2[C@@H](C)C(=O)O[C@@H]3OC4(C)CC[C@@H]1[C@]32OO4,Bovine viral diarrhea virus,10 µM,EBTR,inhibition,C24V,cytopathic effect,80%
CCCCCCCCCN1C[C@H](O)[C@@H](O)[C@H](O)[C@H]1CO,Bovine viral diarrhea virus,,MDBK,EC50,,cytopathic effect,>100 µM
COc1ccc(-c2cc(=O)c3c(O)cc(O)cc3o2)cc1,Bovine herpesvirus 1,,VERO,EC50,,,>20 µg/mL
CC(C)(C)CCCCCCCN1C[C@H](O)[C@@H](O)[C@H](O)[C@H]1CO,Bovine viral diarrhea virus,,MDBK,EC50,,plaque count,30 µM
NC(=O)c1ncn([C@@H]2O[C@H](CO)[C@@H](O)[C@H]2O)c1O,Bovine viral diarrhea virus,,MDBK,EC50,,plaque count,14.2 µM
OC[C@H]1NC[C@H](O)[C@@H](O)[C@@H]1O,Bovine viral diarrhea virus,,MDBK,EC50,,plaque count,150–300 µM
OC[C@H]1O[C@@H](n2cnc3c(NC4CCCC4)cc(Cl)nc32)[C@H](O)[C@@H]1O,Bovine herpesvirus 1,,MDBK,EC50,IRB-LA,cytopathic effect,>50 µM
O[C@H]1[C@H](O)[C@@H](O)CN2CC[C@H](O)[C@H]12,Bovine viral diarrhea virus,,MDBK,EC50,,cytopathic effect,400 µM
OC[C@@H]1C[C@@H](O)[C@H](n2cnc3c(NC4CCCCC4)nccc32)O1,Bovine herpesvirus 1,,MDBK,EC50,IRB-LA,cytopathic effect,>50 µM
OC[C@@H]1[C@@H](O)[C@H](O)[C@@H](O)CN1CCCC1CCCCC1,Bovine viral diarrhea virus,,MDBK,EC50,,plaque count,3 µM

The last 2 rows once more:

SMILES,organism,tested at,cell line,measure,strain,method,value
OC[C@@H]1C[C@@H](O)[C@H](n2cnc3c(NC4CCCCC4)nccc32)O1,Bovine herpesvirus 1,,MDBK,EC50,IRB-LA,cytopathic effect,>50 µM
OC[C@@H]1[C@@H](O)[C@H](O)[C@@H](O)CN1CCCC1CCCCC1,Bovine viral diarrhea virus,,MDBK,EC50,,plaque count,3 µM